Measured values from several laboratories, pooled; numbers as filed in NIAID ChemDB.

Common to all: whole-cell or culture tests; agent: Cryptococcus neoformans

ECn: concentration that inhibits the pathogen or its effect by n%.

structure | method | strain | endpoint | result
C[Si](C)(C)C#Cc1cnc2[nH]c(-c3ccccc3)cc2c1 |  | ATCC90112 | MIC100 | 3.9 µg/mL
CC1(C)O[C@H]2O[C@H](C3=NOC(C#N)C3)[C@H](OCc3ccccc3)[C@H]2O1 |  |  | MIC | 25 µg/mL
CCC(C)CC(C)CCCCCCCCC(=O)N[C@H]1C[C@@H](O)[C@H](NCCN)NC(=O)[C@@H]2[C@@H](O)CCN2C(=O)[C@H]([C@H](O)CCN)NC(=O)[C@H]([C@H](O)[C@@H](O)c2ccc(O)cc2)NC(=O)[C@@H]2C[C@@H](O)CN2C(=O)[C@H]([C@@H](C)O)NC1=O | broth dilution | C237 | MIC | >16 µg/mL
N[C@H]1CCC[C@H]1C(=O)O |  | D49 | MIC | >20 µg/mL
CN1C(c2ccccc2)C/C(=N\OCc2ccccc2)C(Cl)C1c1ccccc1 |  |  | MIC | 50 µg/mL
Cc1c(C(c2ccccc2)n2cncn2)cnn1-c1ccccc1 |  |  | MIC | >200 µM
CC1(C)O[C@H]2O[C@H](C3=NOC(Cc4ccc(O)cc4)C3)[C@H](OCc3ccccc3)[C@H]2O1 |  |  | MIC | 12.5 µg/mL
c1ccc(-c2c(C(c3ccccc3)n3ccnc3)cnn2-c2ccccc2)cc1 |  |  | MIC | 22 µM
CCCCn1nc(-c2cc(C)on2)c(N=O)c1C |  |  | MIC | 9 µM
CC(C)S(=O)(=O)N1CCN(c2cnn(-c3cc(F)cc(F)c3)c(=O)c2OC2CCC(F)C2)CC1 | broth dilution | C237 | MIC | 4 µg/mL
COc1c(O)c2c(=O)cc(OC)c3c4c(OC)cc(=O)c5c(O)c(OC)c6c(c(c1CC(C)=C6OC(C)=O)c23)c54 |  |  | EC50 | >100 µg/mL
C[n+]1c2ccccc2cc2[nH]c3c(Br)cccc3c21.[I-] | resazurin | ATCC 90113 | MIC | 20 µg/mL
C[C@H]1[C@H](O)[C@@H](C)/C=C/C=C/C=C/C=C/C=C/C=C/C=C/[C@H](O[C@@H]2O[C@H](C)[C@@H](O)[C@H](N)[C@@H]2O)C[C@@H]2O[C@](O)(C[C@@H](O)C[C@@H](O)CC[C@H](O)[C@@H](O)C[C@@H](O)CC(=O)O[C@H]1C)C[C@H](O)[C@H]2C(=O)O |  | 32 isolates | MIC50 | 0.13 µg/mL
C=C[C@@H]1C(=C)CC[C@H]2[C@H]1C[C@H]1OC(=O)[C@@]3(C)[C@@H](O)CC[C@@]2(C)[C@@]13O |  |  | MIC | 0.25 µg/mL
Cc1cc(-c2c(N=O)c(C)nn2CCO)no1 |  |  | MIC | 0.8 µM
COC(=O)c1c(N)oc2c(C)c(C)c(O)c(Sc3ccc(C)c(C)c3)c12 | broth dilution | KCCM 50564 | MIC | 6.3 µg/mL
Clc1ccc(C(Cc2ccccc2)Cn2ccnc2)c(Cl)c1 |  |  | MIC | <1 µg/mL
Brc1cnc2[nH]c(CN3CCOCC3)cc2c1 |  | ATCC90112 | MIC100 | 8 µg/mL
CCOC(=O)c1c(N)oc2cc(Cl)c(O)cc12 | broth dilution | KCCM 50564 | MIC | 6.3 µg/mL
COc1ccc(-c2cc3cccnc3[nH]2)cc1 |  | ATCC90112 | MIC100 | 4 µg/mL
CCC/C=C/C=C/C=C/C(=O)OCC1O[C@@H](OC2C(CO)O[C@]3(OCc4cc(O)cc(O)c43)[C@H](O)[C@H]2OC(=O)/C=C/C=C/CC(O)/C=C/C=C/C=C/CCC)[C@H](O)[C@@H](O)[C@H]1O |  | IAM 4514 | MIC | >100 µg/mL
c1ccc(C(c2cnn(-c3ccccc3)c2)n2cncn2)cc1 |  |  | MIC | >200 µM
CCN(Cc1cn(Cc2cccc(F)c2)nn1)CC(O)(Cn1cncn1)c1ccc(F)cc1F |  |  | MIC80 | 1 µg/mL
C=CC[C@@H]1/C=C(/C)C[C@H](C)C[C@H](OC)[C@H]2O[C@@](O)(C(=O)C(=O)N3CCCC[C@H]3C(=O)O[C@H](/C(C)=C/[C@@H]3CC[C@@H](O)[C@H](OC)C3)[C@H](C)[C@@H](O)CC1=O)[C@H](C)C[C@@H]2OC |  | C20F1 | MIC | 100 µg/mL
Brc1cnc2[nH]c(CN3CCCCC3)cc2c1 |  | ATCC90112 | MIC100 | 15.6 µg/mL
CN(c1ccccc1)c1cc2ccccc2[n+](C)c1.[I-] | resazurin | ATCC 90113 | EC50 | >20 µg/mL
CC(=O)OC(CCCC12OC(C(=O)O)C(O)(C(=O)O)C(C(=O)O)(O1)C(OC(=O)CCCCCC/C=C/c1ccccc1)C2O)C(C)C/C=C/c1ccccc1 |  | 58063 | MIC | 6.2 µg/mL
Cn1nc(Cc2ccc(Cl)cc2)c2ccccc2c1=O | broth dilution | Clinical isolate (IM 031631) | MIC50 | 15.6 µg/mL
c1ccc(-c2c(C(c3ccccc3)n3cncn3)cnn2-c2ccccc2)cc1 |  |  | MIC | >200 µM
Cc1cc(-c2c(N=O)c(C)nn2-c2ccccc2)no1 |  |  | MFC | 66 µM
CCCCCOc1ccc(-c2ccc(-c3ccc(C(=O)N[C@H]4C[C@@H](O)[C@@H](O)NC(=O)[C@@H]5[C@@H](O)[C@@H](C)CN5C(=O)[C@H]([C@H](C)O)NC(=O)[C@H]([C@H](O)[C@@H](O)c5ccc(O)cc5)NC(=O)[C@@H]5C[C@@H](O)CN5C(=O)[C@H]([C@H](C)O)NC4=O)cc3)cc2)cc1 |  | 1 isolates | MIC | >2 µg/mL
C[n+]1cccc(Nc2ccccc2)c1.[I-] | resazurin | ATCC 90113 | EC50 | >20 µg/mL
CC[C@@]1(O)C[C@H](O[C@H]2C[C@H](N(C)C)[C@H](O[C@H]3C[C@H](O)[C@H](O[C@H]4CCC(=O)[C@H](C)O4)[C@H](C)O3)[C@H](C)O2)c2c(cc3c(c2O)C(=O)c2c(O)cccc2C3=O)[C@H]1C(=O)OC |  | N-3 | MIC | 0.6 µg/mL
COc1cccc(-c2cc3cccnc3[nH]2)c1 |  | ATCC90112 | MIC100 | 15.6 µg/mL
C[C@@H]([C@H](N)C(=O)N[C@H](C(=O)O)[C@H]1O[C@@H](n2ccc(=O)[nH]c2=O)[C@H](O)[C@@H]1O)[C@H](O)c1ccc(O)cn1 |  | 15 isolates | MIC50 | >64 µg/mL
Nc1[nH]c(=O)ncc1F |  | 42 isolates (HIV+) | MIC50 | 2 µg/mL
CCCCCOc1ccc(-c2ccc(-c3ccc(C(=O)N[C@H]4C[C@@H](O)[C@@H](O)NC(=O)[C@@H]5[C@@H](O)[C@@H](C)CN5C(=O)[C@H]([C@H](C)O)NC(=O)[C@H]([C@H](O)[C@@H](O)c5ccc(O)cc5)NC(=O)[C@@H]5C[C@@H](O)CN5C(=O)[C@H]([C@H](C)O)NC4=O)cc3)cc2)cc1 |  | 10 strains | MIC50 | >16 µg/mL
CNC1C(C)OC(O[C@H]2c3cc(C)c(C(=O)N[C@@H](CO)C(=O)O)c(O)c3-c3c(cc4c(c3O)C(=O)c3cc(OC)cc(O)c3C4=O)[C@@H]2O)C(O)C1OC1OCC(O)C(O)C1O |  | D49 | MIC | 0.8 µg/mL
CNC(CCC(C)C1CC[C@@]2(C)C3=C(CCC12C)C1(C)CC[C@H](OC(C)=O)C(C)(C)C1CC3)C(C)C |  | A.34144 | MIC90 | 100 µg/mL
CC[C@@H]1[C@@H](Cn2cncn2)[C@H](COc2ccc(OC(F)(F)F)cc2)CC[C@@]1(C)CCSc1nccn1C |  | CY1057 | MIC | 0.9 µg/mL
CCn1nc(C)c(N=O)c1-c1cc(C)on1 |  |  | MFC | 0.1 µM
Clc1ccc(C(Cc2c(Cl)cccc2Cl)Cn2ccnc2)cc1 |  |  | MIC | <1 µg/mL
COc1cc(O)c2c(c1)C(=O)c1c(cc3c(c1O)-c1c(cc(C)c(C(=O)NC(CO)C(=O)O)c1O)[C@H](OC1OC(C)C(O)C(OC4OCC(O)C(O)C4O)C1O)C3O)C2=O |  | 15 isolates | MIC90 | 2 µg/mL
CC(C)C(N)CCC(C)C1CC[C@@]2(C)C3=C(CCC12C)C1(C)CC[C@H](O)C(C)(C)C1CC3 |  | A.34144 | MIC90 | 0.1 µg/mL
CCOC(=O)C1CC([C@H]2O[C@@H]3OC(C)(C)O[C@@H]3[C@H]3OC(C)(C)O[C@H]32)=NO1 |  |  | MIC | 12.5 µg/mL
CC[C@@H]([C@H](C)O)n1ncn(-c2ccc(N3CCN(c4ccc(OC[C@@H]5CO[C@@](Cn6cncn6)(c6ccc(F)cc6F)C5)cc4)CC3)cc2)c1=O |  | 15 strains | MIC90 | 0.06 µg/mL
CC(C)C(N)CCC(C)C1CCC2C3CC=C4C[C@@H](O)CCC4(C)C3CCC12C |  | B42419 | MIC90 | 0.39 µg/mL
CC1(C)O[C@H]2O[C@H](C3=NOC(CBr)C3)[C@H](OCc3ccccc3)[C@H]2O1 |  |  | MIC | 25 µg/mL
CCc1c(C(c2ccccc2)n2ccnc2)cnn1-c1ccccc1 |  |  | MIC | 200 µM
CN(c1cccc(Cl)c1)c1cc2ccccc2[n+](C)c1.[I-] | resazurin | ATCC 90113 | EC50 | >20 µg/mL
CCNC(CCC(C)C1CC[C@@]2(C)C3=C(CCC12C)C1(C)CC[C@H](OC(C)=O)C(C)(C)C1CC3)C(C)C |  | A.34144 | MIC90 | 50 µg/mL
Clc1ccc(C(Cc2ccccc2Cl)Cn2ccnc2)cc1 |  |  | MIC | <1 µg/mL
CCn1nc(-c2cc(C)on2)c(N=O)c1C |  |  | MFC | 3.1 µM
CO[C@@H]1[C@H]2OC(C)(C)O[C@H]2O[C@@H]1C1=NOC(CBr)C1 |  |  | MIC | 25 µg/mL
COc1cc(NC(C)CCCN)c2nc(C(C)(C)C)cc(C)c2c1Oc1cccc(C(F)(F)F)c1 |  |  | MFC | 5 µg/mL
Clc1ccc(CC(Cn2ccnc2)c2ccc(Cl)cc2Cl)c(Cl)c1 |  |  | MIC | <1 µg/mL
C[C@H]1[C@H](O)[C@@H](C)/C=C/C=C/C=C/C=C/C=C/C=C/C=C/[C@H](O[C@@H]2O[C@H](C)[C@@H](O)[C@H](N)[C@@H]2O)C[C@@H]2O[C@](O)(C[C@@H](O)C[C@@H](O)CC[C@H](O)[C@@H](O)C[C@@H](O)CC(=O)O[C@H]1C)C[C@H](O)[C@H]2C(=O)O |  |  | MIC50 | 0.05 µg/mL
CCCCCCCCC(OC)C(=O)O |  | ATCC66031 | MIC | 110 µM
CCCCCCCCCCCCCCCCOP(=O)([O-])OCC[N+](C)(C)C |  |  | MIC90 | 2 µg/mL
C[C@H]1[C@H](O)[C@@H](C)/C=C/C=C/C=C/C=C/C=C/C=C/C=C/[C@H](O[C@@H]2O[C@H](C)[C@@H](O)[C@H](N)[C@@H]2O)C[C@@H]2O[C@](O)(C[C@@H](O)C[C@@H](O)CC[C@H](O)[C@@H](O)C[C@@H](O)CC(=O)O[C@H]1C)C[C@H](O)[C@H]2C(=O)O |  | 9 strains | MIC50 | 1 µg/mL
CCn1nc(C)c(N)c1-c1cc(C)on1 |  |  | MIC | >200 µM
Clc1ccc(C(CCc2ccccc2Cl)Cn2ccnc2)c(Cl)c1 |  |  | MIC | <1 µg/mL

The first 9 rows once more:

structure,method,strain,endpoint,result
C[Si](C)(C)C#Cc1cnc2[nH]c(-c3ccccc3)cc2c1,,ATCC90112,MIC100,3.9 µg/mL
CC1(C)O[C@H]2O[C@H](C3=NOC(C#N)C3)[C@H](OCc3ccccc3)[C@H]2O1,,,MIC,25 µg/mL
CCC(C)CC(C)CCCCCCCCC(=O)N[C@H]1C[C@@H](O)[C@H](NCCN)NC(=O)[C@@H]2[C@@H](O)CCN2C(=O)[C@H]([C@H](O)CCN)NC(=O)[C@H]([C@H](O)[C@@H](O)c2ccc(O)cc2)NC(=O)[C@@H]2C[C@@H](O)CN2C(=O)[C@H]([C@@H](C)O)NC1=O,broth dilution,C237,MIC,>16 µg/mL
N[C@H]1CCC[C@H]1C(=O)O,,D49,MIC,>20 µg/mL
CN1C(c2ccccc2)C/C(=N\OCc2ccccc2)C(Cl)C1c1ccccc1,,,MIC,50 µg/mL
Cc1c(C(c2ccccc2)n2cncn2)cnn1-c1ccccc1,,,MIC,>200 µM
CC1(C)O[C@H]2O[C@H](C3=NOC(Cc4ccc(O)cc4)C3)[C@H](OCc3ccccc3)[C@H]2O1,,,MIC,12.5 µg/mL
c1ccc(-c2c(C(c3ccccc3)n3ccnc3)cnn2-c2ccccc2)cc1,,,MIC,22 µM
CCCCn1nc(-c2cc(C)on2)c(N=O)c1C,,,MIC,9 µM

Conditions beyond the fields shown may differ between rows. A number after MIC or MFC names an inhibition level or a share of isolates. An empty or dashed field is not shown.